Compound potency records, mixed from different reports. Data source: NIAID ChemDB in PubChem.

All rows: tests in culture; agent: Aspergillus niger

Rows are shuffled and stem from different studies.

structure | method | strain | read-out | value
CCOC(Cn1[se]c2ccccc2c1=O)OCC | agar |  | MIC | 63 µg/mL
Cc1c(-c2ccccc2)c(=O)oc2ccc(-c3cc(-c4ccccc4)c4c(n3)-c3ccccc3CC4)cc12 | broth dilution / turbidity | MTCC 282 | MIC | >1000 µg/mL
COC(=O)[C@]1(C)CCC[C@]2(C)c3ccc(C(C)C)cc3-c3[nH]c4ccc(C)cc4c3C12 |  | CGMCC3.316 | MIC | >100 µg/mL
CC(C)=CCC/C(C)=C/CO | broth dilution | NRRL 501 | MFC | 288 µg/mL
COc1ccc(/C=C2\SC(N(C)C)=NC2=O)cc1 | broth dilution | ATCC 9029 | MIC100 | >250 µg/mL
O=Cc1c(O)ccc2ccc(=O)oc12 | broth dilution |  | MIC | 15000 µM
CCCCCOc1ccc(-c2cc(-c3ccc(C(=O)N[C@H]4C[C@@H](O)[C@@H](O)NC(=O)[C@@H]5[C@@H](O)[C@@H](C)CN5C(=O)[C@H]([C@H](O)CC(N)=O)NC(=O)[C@H]([C@H](O)[C@@H](O)c5ccc(O)c(OS(=O)(=O)O)c5)NC(=O)[C@@H]5C[C@@H](O)CN5C(=O)[C@H]([C@@H](C)O)NC4=O)cc3)no2)cc1 |  |  | MIC90 | 0.015 µg/mL
CC(=O)N1CCN(c2ccc(OC[C@H]3CO[C@](Cn4ccnc4)(c4ccc(Cl)cc4Cl)O3)cc2)CC1 | broth dilution | ATCC 9029 | MIC100 | 0.25 µg/mL
[Al]#[P] | agar |  | MFC | >5 µg/mL
COC(=O)[C@]1(C)CCC[C@]2(C)c3ccc(C(C)C)cc3-c3[nH]c4c(Cl)cccc4c3C12 |  | CGMCC3.316 | MIC | >100 µg/mL
O=C(NC1CCCCC1)n1[se]c2ccccc2c1=O | agar |  | MIC | 162 µg/mL
COc1ccc(-c2cc(-c3ccc4oc(=O)c(-c5ccccc5)c(C)c4c3)nc3c2Cc2ccccc2-3)cc1 | broth dilution / turbidity | MTCC 282 | MIC | >1000 µg/mL
O=C/C=C/c1ccccc1 | broth dilution | IOA-3 | MIC | 80 µg/mL
C[C@H]1[C@H](O)[C@@H](C)/C=C/C=C/C=C/C=C/C=C/C=C/C=C/[C@H](O[C@@H]2O[C@H](C)[C@@H](O)[C@H](N)[C@@H]2O)C[C@@H]2O[C@](O)(C[C@@H](O)C[C@@H](O)CC[C@H](O)[C@@H](O)C[C@@H](O)CC(=O)O[C@H]1C)C[C@H](O)[C@H]2C(=O)O |  |  | MIC | 0.25–2 µg/mL
COC(OC)C(C)n1[se]c2ccccc2c1=O | agar |  | MIC | 300 µg/mL
COc1cc(/C=C2\SC(N(C)C)=NC2=O)cc(OC)c1OC | broth dilution | ATCC 9029 | MIC100 | >250 µg/mL
CCCCCC1CC(O)CC(=O)O1 | broth dilution | A420 | MIC | 187.5 µg/mL
O=c1c2ccccc2[se]n1C1CCCCC1 | agar |  | MIC | 9 µg/mL
Cc1c(-c2ccccc2)c(=O)oc2ccc(-c3cc(-c4ccc(Cl)cc4)c4c(n3)-c3ccccc3C4)cc12 | broth dilution / turbidity | MTCC 282 | MIC | 200 µg/mL
COC(=O)[C@]1(C)CCC[C@]2(C)c3ccc(C(C)C)cc3-c3[nH]c4ccc([N+](=O)[O-])cc4c3C12 |  | CGMCC3.316 | MIC | >100 µg/mL
Cc1c(-c2ccccc2)c(=O)oc2ccc(-c3cc(-c4ccc(F)cc4)c4c(n3)-c3ccccc3CC4)cc12 | broth dilution / turbidity | MTCC 282 | MIC | >1000 µg/mL
CCCCCOc1ccc(-c2ccc(-c3ccc(C(=O)N[C@H]4C[C@@H](O)[C@@H](O)NC(=O)[C@@H]5[C@@H](O)[C@@H](C)CN5C(=O)[C@H]([C@H](C)O)NC(=O)[C@H]([C@H](O)[C@@H](O)c5ccc(O)cc5)NC(=O)[C@@H]5C[C@@H](O)CN5C(=O)[C@H]([C@H](C)O)NC4=O)cc3)cc2)cc1 |  |  | MIC | 0.015–0.03 µg/mL
Cc1c(-c2ccccc2)c(=O)oc2ccc(-c3cc(-c4ccc(Cl)cc4)c4c(n3)-c3ccccc3CC4)cc12 | broth dilution / turbidity | MTCC 282 | MIC | >1000 µg/mL
CC[C@@H]([C@H](C)O)n1ncn(-c2ccc(N3CCN(c4ccc(OC[C@@H]5CO[C@@](Cn6cncn6)(c6ccc(F)cc6F)C5)cc4)CC3)cc2)c1=O |  |  | MIC90 | 0.5–1 µg/mL
COC(=O)[C@]1(C)CCC[C@]2(C)c3ccc(C(C)C)cc3-c3[nH]c4ccc(OC)cc4c3C12 |  | CGMCC3.316 | MIC | >100 µg/mL
COc1ccc(-c2cc(-c3ccc4oc(=O)c(-c5ccccc5)c(C)c4c3)nc3c2oc2ccccc23)cc1OC | broth dilution / turbidity | MTCC 282 | MIC | 500 µg/mL
CC1=CC(=O)c2c(O)cccc2C1=O | broth dilution | CCAM 080002 | MFC100 | 20 µg/mL
COC(=O)[C@]1(C)CCC[C@]2(C)c3ccc(C(C)C)cc3-c3[nH]c4ccc(Br)cc4c3C12 |  | CGMCC3.316 | MIC | >100 µg/mL
C[C@@H]1[C@H](O)[C@@H](C)/C=C/C=C/CC/C=C/C=C/C=C/C=C/C(O[C@H]2O[C@H](C)[C@@H](O)[C@H](N)[C@@H]2O)CC2O[C@](O)(CC(O)C(O)CCC(O)CC(O)CC(O)CC(=O)O[C@H]1C)CC(O)C2C(=O)O | broth dilution / turbidity | MTCC 282 | MIC | 100 µg/mL
C[C@@H]1[C@H](O)[C@@H](C)/C=C/C=C/CC/C=C/C=C/C=C/C=C/C(O[C@H]2O[C@H](C)[C@@H](O)[C@H](N)[C@@H]2O)CC2O[C@](O)(CC(O)C(O)CCC(O)CC(O)CC(O)CC(=O)O[C@H]1C)CC(O)C2C(=O)O | agar diffusion |  | MIC | 10 µg/mL
C[C@@H](c1nc(-c2ccc(C#N)cc2)cs1)[C@](O)(Cn1cncn1)c1cc(F)ccc1F |  |  | MIC | 0.125–16 µg/mL

Two numbers with a dash give a range or band. Blank or dashed fields: not listed here. A number after MIC or MFC names an inhibition level or a share of isolates.